Test system: G3BP1-YFP
Assay: AP-MS of G3BP1-YFP with N wt or N 3A peptide competition
Set-up: species or system Human

B1: POM121C (protein, UniProt A8CG34 1-1229, looked up)
Nuclear envelope pore …: MSPAAAAAGAGERRRPIASVRDGRGRGCGGPAGAALLGLSLVGLLLYLVPAAAALAWLAVGTTAAWWGLSREPRGSRPLSSFVQKARHRRTLFASPPAKSTANGNLLEPRTLLEGPDPAELLLMGSYLGKPGPPQPAPAPEGQDLRNRPGRRPPARPAPRSTPPSQPTHRVHHFYPSLPTPLLRPSGRPSPRDRGTLPDRFVITPRRRYPIHQTQYSCPGVLPTVCWNGYHKKAVLSPRNSRMVCSPVTVRIAPPDRRFSRSAIPEQIISSTLSSPSSNAPDPCAKETVLSALKEKKKKRTVEEEDQIFLDGQENKRRRHDSSGSGHSAFEPLVASGVPASFVPKPGSLKRGLNSQSSDDHLNKRSRSSSMSSLTGAYTSGIPSSSRNAITSSYSSTRGISQLWKRNGPSSSPFSSPASSRSQTPERPAKKIREEELCHHSSSSTPLAADKESQGEKAADTTPRKKQNSNSQSTPGSSGQRKRKVQLLPSRRGEQLTLPPPPQLGYSITAEDLDLEKKASLQWFNQALEDKSDAASNSVTETPPTTQPSFTFTLPAAATASPPTSLLAPSTNPLLESLKKMQTPPSLPPCPESAGAATTEALSPPKTPSLLPPLGLSQSGPPGLLPSPSFDSKPPTTLLGLIPAPSMVPATDTKAPPTLQAETATKPQATSAPSPAPKQSFLFGTQNTSPSSPAAPAASSASPMFKPIFTAPPKSEKEGLTPPGPSVSATAPSSSSLPTTTSTTAPTFQPVFSSMGPPASVPLPAPFFKQTTTPATAPTTTAPLFTGLASATSAVAPITSASPSTDSASKPAFGFGINSVSSSSVSTTTSTATAASQPFLFGAPQASAASFTPAMGSIFQFGKPPALPTTTTVTTFSQSLPTAVPTATSSSAADFSGFGSTLATSAPATSSQPTLTFSNTSTPTFNIPFGSSAKSPLPSYPGANPQPAFGAAEGQPPGAAKPALTPSFGSSFTFGNSAAPAPATAPTPAPASTIKIVPAHVPTPIQPTFGGATHSAFGLKATASAFGAPASSQPAFGGSTAVFSFGAATSSGFGATTQTASSGSSSSVFGSTTPSPFTFGGSAAPAGSGSFGINVATPGSSATTGAFSFGAGQSGSTATSTPFTGGLGQNALGTTGQSTPFAFNVGSTTESKPVFGGTATPTFGQNTPAPGVGTSGSSLSFGASSAPAQGFVGVGPFGSAAPSFSIGAGSKTPGARQRLQARRQHTRKK
With B1 the “T-test Difference (Mutant vs WT inhibitor, log2)” value (Peptide inhibitor competition, host protein co-purified, mutant vs WT inhibitor, 4 replicates each) was 7.61 log2 and the “Student's T-test Difference mut_wt” value (same quantity as T-test Difference column, unrounded) was 7.607.

From PMC8605023 (Nature Communications, 2021)
